The values that follow come from patent US20220251163A1 (Sinopep-Allsino Biopharmaceutical Co., Ltd., priority 2019, published 2022).

A short description of the series: general procedure: Fmoc solid-phase peptide synthesis; Fmoc-Rink Amide AM Resin (substitution degree 0.35 mmol/g). The following applies: whole synthesis, 214 nm, scale of the general procedure 10 g resin.

Take “YVEGTFTSDYSIVLDKIAQK(HOOC-(CH2)16-CO-γ-Glu-AEEA-AEEA)AFVQWLIAGGPSSGAPPPS-NH2”: the “final HPLC purity” value was “larger than 98.0%”.
